For this assay, the target named is TLR2 (CD282) on human neutrophils and monocytes (human, UniProt O60603 21-784).

Values joined by “and” are separate entries in the source; they are usually repeats but may differ in a detail not shown here. Equal values may be shown once.

The source of these data is patent US20140248273A1 (published 2014).

B1: Staphylococcal superantigen-like 3 (SSL3) protein of S. aureus strain NCTC 8325, recombinant, His-tag removed (other)
chain: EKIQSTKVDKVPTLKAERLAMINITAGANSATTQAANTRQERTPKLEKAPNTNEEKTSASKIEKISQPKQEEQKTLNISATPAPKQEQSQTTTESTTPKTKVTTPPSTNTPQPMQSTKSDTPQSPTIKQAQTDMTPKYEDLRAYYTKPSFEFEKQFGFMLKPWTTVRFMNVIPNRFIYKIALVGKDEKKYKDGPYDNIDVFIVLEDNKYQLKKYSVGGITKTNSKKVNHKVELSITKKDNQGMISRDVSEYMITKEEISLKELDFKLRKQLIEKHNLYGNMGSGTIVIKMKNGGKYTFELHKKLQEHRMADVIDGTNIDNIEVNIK
As to B1, the IC50 is ~0.05 µg/mL and ~0.02 µg/mL.

One may read the IC50 as the concentration that gives 50% inhibition. Lower therefore signals higher potency.
